Results deposited as PubChem BioAssay AID624099 (ICCB-Longwood, 2012).
The whole screen tested about 21,000 reagents; this is an unselected part. 497 of them (2.4%) count as active. 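Higher z means weaker E2 silencing; only reporter increases were scored, and knock-downs that hurt cell survival may mask genuine repressor factors.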 A number with no mark means an inactive call. The numbers tell different reagents against one gene apart.

- Test: 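Knock-downs relieving repression by E2 of an HPV18 LCR luciferase reporter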 (primary screen)
- Cell system: human C33A cervical carcinoma cells (HPV-negative) stably expressing BPV1 E2 and an HPV18 LCR luciferase reporter
- Reagents: siRNA pool against human genes, 40 nM
- Time to read-out: 72 h
- Measured: 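HPV18 LCR reporter light per well, converted to plate-wise z-scores that exclude control wells, and averaged over triplicate plates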
- Reading the numbers: mean z-score and z-score: higher = stronger reporter signal, weaker E2 silencing
- Call rule: 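Mean z ≥ 2 together with z ≥ 2 in two or more of the three replicates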

target gene	pool no.	mean z-score	z-score, replicate A	z-score, replicate B	z-score, replicate C
CHRM4 (cholinergic receptor muscarinic 4)	1	3.9 (active)	4.28	4.01	3.42
TSPAN18 (tetraspanin 18)	1	-1.13	-1.39	-1	-1.01
BCL2A1 (BCL2 related protein A1)	1	-0.43	-0.41	-0.48	-0.39
CCNA1 (cyclin A1)	1	0.14	-0.08	0.18	0.31
HOXD8 (homeobox D8)	1	-0.38	-0.23	-0.54	-0.36
ZNF738 (zinc finger protein 738)	1	-0.21	0.39	-0.35	-0.67
SHARPIN (SHANK associated RH domain interactor)	1	1.56	1.19	1.83	1.66
LINC00900 (long independently transcribed non-coding RNA 900)	1	0.01	-0.19	0.18	0.03
COQ8A (coenzyme Q8A)	1	2.62 (active)	2.74	2.64	2.47
ACTN4 (actinin alpha 4)	1	-1.24	-0.97	-1.31	-1.46
BAZ1A (bromodomain adjacent to zinc finger domain 1A)	1	0.14	0.39	0.08	-0.03
LRIT2 (leucine rich repeat, Ig-like and transmembrane domains 2)	1	-0.43	-0.49	-0.36	-0.44
NGFR (nerve growth factor receptor)	1	0.16	0.03	0.33	0.11
SCN3A (sodium voltage-gated channel alpha subunit 3)	1	0.94	1.1	1.09	0.64
VMA21 (vacuolar ATPase assembly factor VMA21)	1	0.66	0.66	0.81	0.52
FDCSP (follicular dendritic cell secreted protein)	1	-0.95	-0.64	-1.06	-1.15
CCNDBP1 (cyclin D1 binding protein 1)	1	0.41	0.5	0.27	0.45
LOC388713 (retired record)	1	-0.28	-0.23	0.01	-0.61
GPR107 (G protein-coupled receptor 107)	1	0.03	-0.21	0.24	0.05
CD69 (CD69 molecule)	1	-0.04	0.06	-0.08	-0.1
GET1 (guided entry of tail-anchored proteins factor 1)	1	-1.15	-0.97	-1.21	-1.26
RND1 (Rho family GTPase 1)	1	-0.68	-0.73	-0.59	-0.71
NR1H4 (nuclear receptor subfamily 1 group H member 4)	1	-0.2	-0.28	-0.08	-0.24
MRPS18A (mitochondrial ribosomal protein S18A)	1	-1.34	-1.19	-1.12	-1.72
ILDR1 (immunoglobulin like domain containing receptor 1)	1	-0.2	-0.4	0.06	-0.25
FPR3 (formyl peptide receptor 3)	1	0.34	0.66	0.1	0.26
NOG (noggin)	1	-0.14	-0.25	-0.21	0.06
GTF2IRD2 (GTF2I repeat domain containing 2)	1	1.03	1.06	0.95	1.08
ZNF174 (zinc finger protein 174)	1	-0.66	-0.6	-0.76	-0.61
PMM1 (phosphomannomutase 1)	1	2.87 (active)	2.47	3.26	2.87
LINC00574 (long independently transcribed non-coding RNA 574)	1	-0.29	-0.49	-0.31	-0.09
KIF5A (kinesin family member 5A)	1	0.85	0.98	0.81	0.75
SEMA4D (semaphorin 4D)	1	0.16	0.51	-0.07	0.04
SEMA4D (semaphorin 4D)	2	1.94	2.19	1.66	1.96
RAB5B (RAB5B, member RAS oncogene family)	1	-1.42	-1.65	-1.35	-1.26
UXT (ubiquitously expressed prefoldin like chaperone)	1	0.67	0.55	1	0.47
SEMG2 (semenogelin 2)	1	0.52	0.4	0.64	0.52
KATNAL1 (katanin catalytic subunit A1 like 1)	1	0.29	0.02	0.53	0.33
WWTR1 (WW domain containing transcription regulator 1)	1	0.97	1.09	0.66	1.15
BPIFA1 (BPI fold containing family A member 1)	1	-0.04	0.45	-0.39	-0.18
AZGP1P2 (AZGP1 pseudogene 2)	1	2.19 (active)	2.19	2.26	2.13
AZGP1P2 (AZGP1 pseudogene 2)	2	0.35	0.34	0.71	0
HUWE1	1	-2.11	-2.36	-2.17	-1.81
KCNJ8 (potassium inwardly rectifying channel subfamily J member 8)	1	-0.29	0	-0.3	-0.56
SERINC3 (serine incorporator 3)	1	-0.43	-0.21	-0.49	-0.58
SNX15 (sorting nexin 15)	1	0.35	0.72	0.54	-0.19
KIF17 (kinesin family member 17)	1	0.84	0.95	0.51	1.05
KCNJ13 (potassium inwardly rectifying channel subfamily J member 13)	1	-0.51	-0.59	-0.49	-0.46
KLK14 (kallikrein related peptidase 14)	1	1.79	2.02	1.76	1.6
SPECC1L	1	0.25	-0.17	0.41	0.51
ZBTB46 (zinc finger and BTB domain containing 46)	1	0.99	0.96	0.83	1.19
LGALS7 (galectin 7)	1	0.71	0.84	0.66	0.62
LOC728660	1	-0.33	-0.4	-0.27	-0.33
GPRC5D (G protein-coupled receptor class C group 5 member D)	1	-1.27	-1.23	-1.23	-1.33
RPP14 (ribonuclease P/MRP subunit p14)	1	-0.61	-0.91	-0.62	-0.29
CARS1 (cysteinyl-tRNA synthetase 1)	1	-0.09	-0.11	-0.05	-0.1
DDAH1 (dimethylarginine dimethylaminohydrolase 1)	1	0.75	0.64	1.03	0.59

Quoted from the entries so far (3 entries):
target gene	pool no.	mean z-score	z-score, replicate A	z-score, replicate B	z-score, replicate C
SEMG2 (semenogelin 2)	1	0.52	0.4	0.64	0.52
KATNAL1 (katanin catalytic subunit A1 like 1)	1	0.29	0.02	0.53	0.33
WWTR1 (WW domain containing transcription regulator 1)	1	0.97	1.09	0.66	1.15
